Measured values from several laboratories, pooled; numbers as filed in NIAID ChemDB.

Common to all: whole-cell or culture tests; agent: Mycobacterium tuberculosis

MIC bound: limit read from a one-dose screen. Rows are shuffled and stem from different studies. ECn is the concentration giving n% inhibition of infection, replication or growth. Inhibition is in % at the dose shown (toxicity tests: loss of growth or viability). A number after MIC or MFC names an inhibition level or a share of isolates. Blank or dashed fields: not listed here.

smiles	endpoint	conditions	method	dose	strain or isolate	result
CN1CCN=C1c1ccc(NC(=O)Nc2ccc(NC(=O)Nc3ccc(C4=NCCN4C)cc3)cc2)cc1.Cl.Cl	MIC bound		BACTEC		H37Rv	>128 µg/mL
O=C(/C=C/c1ccc(F)cc1Cl)c1ccccc1	MIC	14 d	resazurin		H37Rv	32 µg/mL
Cc1c(-c2ccccc2)c(=O)oc2ccc(-c3cc(-c4ccccc4)c4oc5ccccc5c4n3)cc12	inhibition		agar / visual reading	250 µg/mL	H37Rv	70%
C[C@H]1Oc2nc([N+](=O)[O-])cn2C[C@@H]1OCc1ccc(OC(F)(F)F)cc1	MIC		absorbance		H37Rv-T2	>100 µM
CCS/C(N)=N/N=C/c1ccc2cc(Cl)ccc2n1	MIC				CNCTC TBC1/47	16 µM
COc1ccc(-c2cc(-c3ccc4oc(=O)c(-c5ccccc5)c(C)c4c3)nc3c2oc2ccccc23)cc1	inhibition		agar / visual reading	250 µg/mL	H37Rv	81%
COc1cc2occ(-c3ccc(O)cc3)c(=O)c2c(OC)c1O	inhibition		resazurin	6.25 µg/mL	H37Rv	7%
O=C(/C=C/c1ccc(F)cc1)c1ccc(O)cc1	MIC	14 d	resazurin		H37Rv	32 µg/mL
CN[C@@H]1[C@H](O[C@H]2[C@H](O[C@H]3[C@H](O)[C@@H](O)[C@H](N=C(N)N)[C@@H](O)[C@@H]3N=C(N)N)O[C@@H](C)[C@]2(O)C=O)O[C@@H](CO)[C@H](O)[C@H]1O	EC50		resazurin		H37Ra	6.25 µg/mL
O=C(Nc1cccc(Cl)c1)c1ccc(Cl)cc1OS(=O)(=O)c1ccccc1	MIC	21 d			H37Rv	16 µM
O=c1sn(-c2ccccc2C(F)(F)F)c(=O)n1CC1CC1	MIC		broth dilution		H37Rv	25 µg/mL
O=c1c2ccccc2sc2c([N+](=O)[O-])ccc(NCCNCCO)c12	MIC		BACTEC		H37Rv	3.13 µg/mL
CCOC(=O)c1cccc(-n2sc(=O)n(C3Cc4ccccc4C3)c2=O)c1	MIC		broth dilution		H37Rv	6.25 µg/mL
O=C(Nc1ccc(Cl)c(Cl)c1)c1cc(Cl)ccc1OS(=O)(=O)c1ccccc1	MIC	21 d			H37Rv	2 µM
Fc1ccc(/C=C2/COCC3=C2NC(=S)NC3c2ccc(F)cc2)cc1	MIC bound		BACTEC		H37Rv	>12.5 µg/mL
O=C(O)c1[nH]c2ccccc2c1CNCCc1ccc(Cl)cc1	MIC		resazurin		18b	16 µg/mL
NNC(=O)c1ccncc1	MIC				H37Rv	0.062 µg/mL
O=C(Nc1cccc(Br)c1)c1cc(Cl)ccc1OS(=O)(=O)c1ccccc1	MIC	21 d			H37Rv	8 µM
CCS/C(N)=N/N=C/c1ccccc1O	MIC				CNCTC TBC1/47	63 µM
O=C(/C=C/c1ccccc1Cl)c1ccc(F)cc1	MIC	7 d	resazurin		H37Rv	32 µg/mL
CC1=CC[C@]2(C)C[C@H](O)[C@@]3(C)[C@H](C(C(C)C)=C[C@@H]3O)[C@H]2CC1	EC50		resazurin		H37Rv	>6.25 µg/mL
CCCCS/C(N)=N/N=C/c1ccc2ccccc2n1	MIC				CNCTC TBC1/47	16 µM
O=C1CCCC2=C1C(c1ccccc1)C1=C(CCCC1=O)O2	MIC		resazurin		H37Ra	≥1.6 µg/mL
Cc1c(-c2ccccc2)c(=O)oc2ccc(-c3cc(-c4ccccc4)c4c(n3)-c3ccccc3C4)cc12	inhibition		agar / visual reading	250 µg/mL	H37Rv	40%
COC(=O)c1nc2[nH]n(-c3ccccc3)c(=O)c2c(C(=O)OC)c1C(C)C(=O)c1ccccc1	MIC bound		BACTEC		H37Rv	>12.5 µg/mL
Cc1cc(C)c2c(c1)C(O)(N1CCCC(C)C1)C(=O)N2	MIC		resazurin		18b	>16 µg/mL
COc1cccc(/C=C/C(=O)c2ccc(F)cc2)c1F	MIC		MTT		H37Rv	32 µg/mL
Cc1c(-c2ccccc2)c(=O)oc2ccc(-c3cc(-c4ccc(F)cc4)c4c(n3)-c3ccccc3C4)cc12	inhibition		agar / visual reading	250 µg/mL	H37Rv	49%
C[N+](C)(C)NP(=O)(N[N+](C)(C)C)c1ccccc1	MIC bound		BACTEC		H37Rv	>12.5 µg/mL
Cc1c(-c2ccccc2)c(=O)oc2ccc(-c3cc(-c4ccc(Cl)cc4)c4oc5ccccc5c4n3)cc12	inhibition		agar / visual reading	250 µg/mL	H37Rv	64%
CCCCCCCCCC(=O)C1=C(O)[C@H](CCO)NC1=O	MIC				H37Rv (ATCC 27294)	5 µg/mL
O=C(Nc1ccc(Cl)cc1)c1cc(Cl)ccc1OS(=O)(=O)c1ccccc1	MIC	14 d			H37Rv	4 µM
C1CCNCC1.S=C(S)N1CCCCC1	MIC		BACTEC		H37Rv	0.8 µg/mL
CCC(C)S/C(N)=N/N=C/c1ccncc1	MIC				CNCTC TBC1/47	32 µM
COc1ncnc(Cn2cnc3c(C(=O)NCC(F)(F)F)cc(C)cc32)c1C	MIC80		visual reading / absorbance		H37Rv	<1.27 µM
CC1CCCC(C)N1C(=O)c1noc2c1CC(C(C)(C)C)CC2	MIC		resazurin		Clinical isolate	16 µg/mL
Cc1c(-c2ccccc2)c(=O)oc2ccc(-c3cc(-c4ccc(Cl)cc4)c4c(n3)-c3ccccc3C4)cc12	inhibition		agar / visual reading	250 µg/mL	H37Rv	12%
CC12CC/C(=N\NC(=O)Cc3c[nH]c4ccccc34)C=C1CCC1C2CCC2(C)C(OC(=O)c3ccccc3)CCC12	inhibition		BACTEC	12.5 µg/mL	H37Rv	27%
Cc1ccc(-c2cc(-c3ccc4oc(=O)c(-c5ccccc5)c(C)c4c3)nc3c2CCc2ccccc2-3)cc1	inhibition		agar / visual reading	250 µg/mL	H37Rv	53%
CC1=CC[C@]2(C)CC[C@@]3(C)[C@H](C(C(C)C)=C[C@@H]3O)[C@H]2CC1	inhibition		resazurin	6.25 µg/mL	H37Rv	50%
CC1(C)Oc2c(c3nc4ccccc4nc3c3ccccc23)C=C1Br	MIC		resazurin		H37Rv	6.25 µg/mL
COc1cc2c(cc1OC)-c1cc3cc(OC)c(OC)cc3c(C)[n+]1CC2.O=C(O)CS(=O)(=O)[O-]	MIC		BACTEC		H37Rv	≥12.5 µg/mL
O=C1C2=Nc3ccncc3CN2c2ccc(Cl)cc21	MIC		resazurin		H37Rv	3.7 µg/mL
COc1ccc(C2C3=C(CCCC3=O)OC3=C2C(=O)CCC3)cc1OC	MIC		resazurin		H37Ra	≥0.4 µg/mL
Cc1ccc(CNS(=O)(=O)c2ccc(-c3n[nH]c(C)c3C)o2)o1	MIC		resazurin		Clinical isolate	8 µg/mL
O=C(/C=C/c1ccccc1)c1ccc(F)cc1	MIC	7 d	MTT		H37Rv	32 µg/mL
CC(C)C1=CC2=CC(=O)[C@H]3C(C)(C)CCC[C@]3(C)C2=C(O)C1=O	MIC bound		BACTEC		H37Rv	≤12.5 µg/mL
COc1c(N2C[C@@H]3CCCN[C@@H]3C2)c(F)cc2c(=O)c(C(=O)O)cn(C3CC3)c12	MIC				H37Rv	0.177 µg/mL
O=c1/c(=C\c2ccccc2)sc2nc(-c3ccccc3)nn12	MIC bound		BACTEC		H37Rv	>12.5 µg/mL
Cc1c(-c2ccccc2)c(=O)oc2ccc(-c3cc(-c4ccc(F)cc4)c4c(n3)-c3ccccc3CC4)cc12	inhibition		agar / visual reading	250 µg/mL	H37Rv	39%
COc1cc(C)cc2c1c(-c1ccc(O)cc1)[n+]1n2CCCC1.[OH-]	MIC		agar		H37Rv	250 µg/mL
CCS/C(N)=N/N=C/c1ccc2ccccc2n1.CCS/C(N)=N/N=C/c1ccc2ccccc2n1	MIC				CNCTC TBC1/47	16 µM
Cc1nnc2n1N=C1CC(C)(C)CC(=O)C1S2	inhibition			6.25 µg/mL	H37Rv	10%
Cc1noc(C)c1-n1sc(=O)n(CC2CC2)c1=O	MIC		broth dilution		H37Rv	25 µg/mL
O=C(Nc1ccc(F)cc1)c1ccc(Cl)cc1OS(=O)(=O)c1ccccc1	MIC	21 d			H37Rv	16 µM
CCCCC1CCCCCCc2[nH]c(/C=C3\N=C(c4ccc[nH]4)C=C3OC)cc21.Cl	MIC				H37Rv	12.5 µg/mL
COc1cc2c3c(c1OC)-c1c(ccc(O)c1O)C[C@@H]3[N+](C)(C)CC2.[OH-]	MIC		agar		H37Rv	250 µg/mL
Cc1cn(C2C=CC(COC(=O)CNC(=O)c3ccncn3)O2)c(=O)[nH]c1=O	EC50				H37Rv	>6.25 µg/mL
Cc1cccc(Cl)c1-n1sc(=O)n(CC2CC2)c1=O	MIC		broth dilution		H37Rv	12.5 µg/mL
CC1(C)CC(=O)NC1=O	inhibition		BACTEC	12.5 µg/mL	H37Rv	-10%
COCc1cc(C)nc(N/N=C/c2cc(OC)ccc2OC)c1C#N	MIC		resazurin		18b	16 µg/mL
CC1(C)CCc2c(c3ccccc3c3[nH]c(-c4ccccc4)nc23)O1	MIC		resazurin		ATCC 35338	>100 µg/mL
CN(C)c1ccc(C2C3=C(CCCC3=O)OC3=C2C(=O)CCC3)cc1	MIC		resazurin		H37Ra	≥3.125 µg/mL
O=C(Nc1ccc(Cl)c(Cl)c1)c1ccc(Cl)cc1OS(=O)(=O)c1ccccc1	MIC	21 d			H37Rv	8 µM
C[C@@H]1C[C@H]2C[C@]1(OC(=O)CC(=O)O[C@]13CCC4[C@](CCC5[C@@]4(C)CCC[C@@]5(C)C(=O)O)(C[C@@H]1C)C3)CC1C2CCC2[C@]1(C)CCC[C@]2(C)C(=O)O	MIC		BACTEC		H37Rv	5 µg/mL
COC(=O)c1cc(N)cn1C	inhibition		resazurin	6.25 µg/mL	H37Rv	-14%
Clc1ccc(Nc2cc3nc4ccccc4n(-c4ccc(Cl)cc4)c-3cc2=NC2CCCCC2)cc1	MIC				H37Rv	0.33 µg/mL
ICC1Cc2c(c3ccccc3c3nc4ccccc4nc23)O1	MIC		resazurin		H37Rv	>100 µg/mL
Cc1ccc(Cl)cc1N=c1c([N+](=O)[O-])nn(-c2ccccc2)n1O	MIC		resazurin		Clinical isolate	16 µg/mL
CCN(CCO)CCNc1ccc(C)c2sc3ccccc3c(=O)c12	MIC bound		BACTEC		H37Rv	≤12.5 µg/mL
CC(C)c1ccc(-n2c(=O)sn(-c3ccc(SC(F)(F)F)cc3)c2=O)cc1	MIC		broth dilution		H37Rv	12.5 µg/mL
CC(C)c1cc(C(C)C)c(S(=O)(=O)N2CCN(CCO)CC2)c(C(C)C)c1	MIC		resazurin		18b	16 µg/mL
COc1ccc(C(=O)/C=C/c2ccc(F)cc2Cl)cc1	MIC	14 d	MTT		H37Rv	64 µg/mL
COc1ccc(-c2cc(-c3ccc4oc(=O)c(-c5ccccc5)c(C)c4c3)nc3c2CCc2ccccc2-3)cc1OC	MIC		agar / visual reading		H37Rv	100 µg/mL
CCOC(=O)C1=C(C)OC(C)(/N=C(\C#N)C(=O)OC)C1c1ccccc1	MIC bound		BACTEC		H37Rv	>12.5 µg/mL
Clc1ccc(N=c2cc3n(-c4ccc(Cl)cc4)c4ccccc4nc-3cc2Nc2ccc(Cl)cc2)cc1	MIC				H37Rv	2.5 µg/mL
Cc1cc(S(=O)(=O)Nc2nnc3c(Cl)cc(C(F)(F)F)cn23)c(S)cc1Cl	inhibition		BACTEC	12.5 µg/mL	H37Rv	0%
CCC(C)C(NC=O)C(=O)N[C@@H]1C(=O)N[C@H](C(C)C)C(=O)N[C@@H](C(C)C)C(=O)N2CCC[C@@H]2C(=O)N[C@H](CC(C)C)C(=O)N2CCC[C@@H]2C(=O)OC1C	MIC		agar		H37Rv	4 µg/mL
O=C(Nc1ccc(CSc2ccc(Cl)cc2)o1)N1CCOCC1	MIC bound		BACTEC		H37Rv	>12.5 µg/mL
O=C(/C=C/c1ccccc1Cl)c1ccccc1	MIC		MTT		H37Rv	32 µg/mL
COc1cc(=O)n(-c2ccccc2)nc1C#N	MIC bound		BACTEC		H37Rv	>12.5 µg/mL
CS/C(N)=N/N=C/c1ccc2ccccc2n1	MIC				CNCTC TBC1/47	125 µM